Laboratory results taken from patent US6673821B2, “Nitrogen heterocycle inhibitors of aspartyl protease” (Enanta Pharmaceuticals, Inc., priority 2001, dated 2004).

Biological target: HIV-1 protease (Human immunodeficiency virus type 1 group M subtype B, UniProt P04585)
Experiment: Biological assay for inhibition of microbial expressed viral protease (HIV-1 protease)
Conditions: read-out: Activity; IC50 against HIV-1 protease, given as class symbol
From the text: Insofar as compounds of the invention are able to inhibit the replication of the HIV virus in human T-cells and furthermore, may be delivered orally to mammals, they are of evident clinical utility for the treatment of HIV infection. These tests are predictive of the compounds ability to inhibit HIV protease in vivo. We have measured the inhibition constants of each compound against HIV-1 protease using essentially the method described by M. W. Pennington et al., Peptides 1990, Gimet, E. and D. Andrew, Eds., Escom; Leiden, Netherlands (1990).
Biological Assay for Inhibition of Microbial Expressed Viral Protease
The inhibition constants against HIV-1 protease were measured using the method described by M. V. Toth and G. R. Marshall, Int. J. Peptide protein Res., 1990, 544. The method described M. W. Pennington et al., Peptides 1990, Gimet, E. and D. Andrew, Eds., Escom; Leiden, Netherlands (1990) may also be used. Inhibition is measured as IC50 in μM. The person of skill would accept these tests as predictive of the compounds' utility in vivo to treat HIV infected patients.

| Compound | IC50 |
| --- | --- |
| COCC(=O)N[C@@H](Cc1ccccc1)[C@H](O)C1SCCN1S(=O)(=O)c1ccc(F)cc1 (some centres unmarked) | < 5 µM |
| CC(C)(C)OC(=O)N[C@@H](Cc1ccccc1)[C@H](O)C1SCCN1S(=O)(=O)c1ccc(F)cc1 (some centres unmarked) | < 5 µM |
